Measured values taken from PMC10892871 (Viruses, 2024).

Test system: wild type B.1 SARS-CoV-2
Type: cell-based

Row | Substance | IC50 [µg/mL] | IC50 vs. B.1 Mean ± SD [µg/mL]
1 | cilgavimab | 0.20 ± 0.13 | 0.204 ± 1.354
2 | tixagevimab | 0.07 ± 0.04 | 0.068 ± 0.041
